The values that follow come from patent US20040191887A1 (WISCONSIN ALUMNI RESEARCH FOUNDATION, published 2004).

Assay [1] concerns the target T1, botulinum neurotoxin B (Clostridium botulinum, UniProt P10844 2-441; P10844 442-1291). The assay is described as follows: cell-based or functional assay.
Assay [2] deals with T1, botulinum neurotoxin B. The assay is described as follows: GST pull-down, immunoblot (FIG. 8).
The target in assay [3] is T1, botulinum neurotoxin B.
Assay [4] addresses T1, botulinum neurotoxin B. Nature of the assay: immunofluorescence of fragment aggregates on syt II+ PC12 cells (FIG. 5A).

Like-named read-outs stand apart in the source and are kept apart here.

B1: His6-syt II 1-267 (receptor)
chain: MRNIFKRNQEPNVAPATTTATMPLAPVAPADNSTESTGPGESQEDMFAKLKEKFFNEINKIPLPPWALIAMAVVAGLLLLTCCFCICKKCCCKKKKNKKEKGKGMKNAMNMKDMKGGQDDDDAETGLTEGEGEGEEEKEPENLGKLQFSLDYDFQANQLTVGVLQAAELPALDMGGTSDPYVKVFLLPDKKKKYETKVHRKTLNPAFNETFTFKVPYQELAGKTLVMAIYDFDRFSKHDIIGEVKVPMNTVDLGQPIEEWRDLQGGE
For B1, the “efficacy of protection of syb II from cleavage, with versus without gangliosides” value in the assay with botulinum neurotoxin B [1] is roughly 3 fold.

B2: GST-syt I 1-53 (isolated luminal domain of syt I) (receptor)
chain: MVSASHPEALAAPVTTVATLVPHNATEPASPGEGKEDAFSKLKQKFMNELHKI
Consider B2, for which the binding result with botulinum neurotoxin B [2] is reported as “no binding”.

B3: GST fusion of rat synaptotagmin IV lacking the C2B domain (receptor)
chain: MAPITTSRVEFDEIPTVVGIFSAFGLVFTVSLFAWICCQRRSAKSNKTPPYKFVHVLKGVDIYPENLSSKKKFGGDDKSEAKRKAALPNLSLHLDLEKRDLNGNFPKTNPKAGSSSDLENVTPKLFPETEKEAVSPESLKSSTSLTSEEKQEKLGTLFLSLEYNFEKKAFVVNIKEAQGLPAMDEQSMTSDPYIKMTILPEKKHKVKTRVLRKTLDPVFDETFTFYGVPYPHIQELSLHFTVLSFDRFSRDDVIGEVLVPLSGIELSDGKMLMTREIIKR
Turning to B3, the binding result with botulinum neurotoxin B [3] is “no binding (tested: 30 nM)”.

B4: His6-syt II 61-267 (receptor)
chain: IPLPPWALIAMAVVAGLLLLTCCFCICKKCCCKKKKNKKEKGKGMKNAMNMKDMKGGQDDDDAETGLTEGEGEGEEEKEPENLGKLQFSLDYDFQANQLTVGVLQAAELPALDMGGTSDPYVKVFLLPDKKKKYETKVHRKTLNPAFNETFTFKVPYQELAGKTLVMAIYDFDRFSKHDIIGEVKVPMNTVDLGQPIEEWRDLQGGE
On to B4, for which the binding result with botulinum neurotoxin B [4] is “no binding (tested: 30 nM BoNT/B, 960 nM fragment)”.
